Anti-infective test results gathered from many reports (values: NIAID ChemDB through PubChem).

All rows: host cell toxicity; cell line: MT-4; endpoint: CC50

CCn: concentration that lowers growth or viability of the cells by n%. Conditions beyond the fields shown may differ between rows.

compound | method | value
COC(=O)N[C@H](C(=O)NN(CC[C@]1(Cc2ccccc2)C(=O)N(C2c3ccccc3C[C@H]2O)C[C@H]1O)Cc1ccc(Br)cc1)C(C)(C)C | XTT | 31 µM
COCCOCCOC(=O)OCOc1c2n(cc(C(=O)NCc3ccc(F)cc3F)c1=O)[C@@H]1CN(C2=O)[C@@H](C)CC[C@]12CC(OC)=NO2 | luminescence | 50 µM
C=C1CN(S(=O)(=O)c2ccc(C)cc2)CCCN(CC2CC=CCC2)CCCN(S(=O)(=O)c2ccc(C)cc2)C1 | trypan blue / propidium iodide | 32.7 µM
CC1(C)c2nc(C(=O)NCc3ccc(F)cc3)c(O)c(=O)n2CCN1CCN1CCOCC1 | microscopy | >1 µM
N#C[C@]1(CO)O[C@@H](n2cnc3c(=O)[nH]c(N)nc32)C[C@@H]1O | absorbance | 2.3 µM
O=C1/C(=C\c2ccc(Cl)cc2)N(CCc2cccs2)C(=S)N1CCc1cccs1 | MTT / turbidity | 103 µg/mL
CN1CCN(C(=O)CN2CCn3c(nc(C(=O)NCc4ccc(F)cc4)c(O)c3=O)C2(C)C)CC1 | microscopy | >1 µM
COP(=O)(c1cc(C)cc(CCC#N)c1)c1c(C(N)=O)[nH]c2ccc(Cl)c(F)c12 | MTS | 18.6 µM
CC(=O)OC[C@H]1O[C@@H](n2c(-c3ccc(N)cc3)cc(-c3ccccc3)c(C#N)c2=O)[C@H](OC(C)=O)[C@@H](OC(C)=O)[C@@H]1OC(C)=O | XTT | >11.6 µM
CCCCCCCCCCCCCCCCCCOC(=O)OCOc1c2n(cc(C(=O)NCc3ccc(F)cc3F)c1=O)[C@@H]1CN(C2=O)[C@@H](C)CC[C@]12CC(C)=NO2 | luminescence | 50 µM
C=C1CN(S(=O)(=O)c2ccc(COCCCC)cc2)CCCN(Cc2ccccc2)CCCN(S(=O)(=O)c2ccc(COCCCC)cc2)C1 | trypan blue / propidium iodide | 30.5 µM
CCCCCCCCCCCCCCCCOC(=O)OCOc1c2n(cc(C(=O)NCc3ccc(F)cc3F)c1=O)[C@@H]1CN(C2=O)[C@@H](C)CC[C@]12CC(OC)=NO2 | luminescence | 50 µM
CC(C)N1CCn2c(nc(C(=O)NCc3ccc(F)cc3)c(O)c2=O)C(N(C)C(=O)C(=O)N(C)C)C1 | microscopy | >1 µM
CCOC(=O)c1[nH]c2ccc(Cl)cc2c1SC1CCC1 | microscopy | >10 µM
C=C1[C@H](CO)[C@@H](O)C[C@@H]1n1cnc2c(=O)[nH]c(N)nc21 | absorbance | 44.5 µM
COC(=O)N[C@H](C(=O)NN(CC[C@@]1(Cc2ccccc2)C(=O)N(C2c3ccccc3C[C@H]2O[Si](C)(C)C(C)(C)C)C[C@@H]1O[Si](C)(C)C(C)(C)C)Cc1ccc(Br)cc1)C(C)(C)C | XTT | >50 µM
CCOC(=O)c1[nH]c2ccc(Cl)cc2c1SC1CCCC1 | microscopy | >10 µM
O=C1/C(=C\c2ccc(Cl)cc2Cl)N(CCc2cccs2)C(=S)N1CCc1cccs1 | MTT / turbidity | 67.9 µg/mL
CCCCCCCCCCCCCCCCCC(=O)OCOc1c2n(cc(C(=O)NCc3ccc(F)cc3F)c1=O)[C@@H]1CN(C2=O)[C@@H](C)CC[C@]12CC(C)=NO2 | luminescence | 50 µM
CC(=O)OC[C@H]1O[C@@H](n2c(-c3ccc(C)cc3)cc(-c3ccccc3)c(C#N)c2=O)[C@H](OC(C)=O)[C@@H](OC(C)=O)[C@H]1OC(C)=O | XTT | >16.5 µM
Cc1ccc(S(=O)(=O)N2CCCN(Cc3ccccc3)CCCN(S(=O)(=O)c3ccc(C)cc3)CCC2)cc1 | trypan blue / propidium iodide | 38 µM
CCOC(=O)c1cc(O)c(O)c(O)c1 | MTS | >200 µM
CCCCCCCCCCCCOC(=O)OCOc1c2n(cc(C(=O)NCc3ccc(F)cc3F)c1=O)[C@@H]1CN(C2=O)[C@@H](C)CC[C@]12CC(C)=NO2 | luminescence | 50 µM
CN(CC1c2nc(C(=O)NCc3ccc(F)cc3)c(O)c(=O)n2CCN1C)C(=O)c1cccc[n+]1[O-] | microscopy | >10 µM
CN(C)c1ccc(/C=C2\C(=O)N(CCc3cccs3)C(=S)N2CCc2cccs2)cc1 | MTT / turbidity | 34.3 µg/mL
NC(=O)c1[nH]c2ccc(Cl)cc2c1S(=O)(=O)CC1CC(F)(F)C1(F)F | microscopy | >10 µM
CN1CCn2c(nc(C(=O)NCc3ccc(F)cc3)c(O)c2=O)C1CN(C)S(C)(=O)=O | microscopy | >10 µM
COc1cccc(S(=O)(=O)n2c(=O)[nH]c3ccc(Cl)cc32)c1 | MTS | >369 µM
C=C1CN(S(=O)(=O)c2ccc(C)cc2)CCCN(Cc2ccccn2)CCCN(S(=O)(=O)c2ccc(C)cc2)C1 | trypan blue / propidium iodide | >75 µM
O=C(NCc1ccc(F)cc1)c1nc2n(c(=O)c1O)CCNC21CCOCC1 | microscopy | >1 µM
Cc1ccc(S(=O)(=O)N2CCCN(Cc3ccccc3)CCCN(S(=O)(=O)c3ccc(C)cc3)CC(CCl)C2)cc1 | trypan blue / propidium iodide | 46.9 µM
CC1(C)c2nc(C(=O)NCc3ccc(F)cc3)c(O)c(=O)n2CCN1CCc1ccccn1 | microscopy | >1 µM
COC(=O)N[C@H](C(=O)NN(CC[C@@]1(Cc2ccccc2)C(=O)N(C2c3ccccc3C[C@H]2O)C[C@H]1O)Cc1ccc(-c2cccnc2)cc1)C(C)(C)C | XTT | 31 µM
NC(=O)c1[nH]c2ccc(Cl)cc2c1S(=O)(=O)CCCC(F)(F)F | microscopy | >10 µM
CC(=O)N(Cc1ccccc1)C1CN(C)CCn2c1nc(C(=O)NCc1ccc(F)cc1)c(O)c2=O | microscopy | >1 µM
C=C1CN(S(=O)(=O)c2ccc(C)cc2)CCCN(CC(C)C)CCCN(S(=O)(=O)c2ccc(C)cc2)C1 | trypan blue / propidium iodide | >75 µM
COC(=O)N[C@H](C(=O)NN(CC[C@@]1(Cc2ccccc2)C(=O)N(C2c3ccccc3C[C@H]2O)C[C@@H]1O)Cc1ccc(-c2cccnc2)cc1)C(C)(C)C | XTT | 31 µM
CC(=O)OC[C@H]1O[C@@H](n2c(-c3ccc(C)cc3)cc(-c3ccco3)c(C#N)c2=O)[C@H](OC(C)=O)[C@@H](OC(C)=O)[C@@H]1OC(C)=O | XTT | >8.6 µM
[N-]=[N+]=N[C@]1(CO)O[C@@H](n2cnc3c(=O)[nH]c(N)nc32)C[C@@H]1O | absorbance | 4.7 µM
C=C1CN(S(=O)(=O)c2ccc(C)cc2)CCCN(C(=O)OCC)CCCN(S(=O)(=O)c2ccc(C)cc2)C1 | trypan blue / propidium iodide | >75 µM
COC(=O)N[C@H](C(=O)NN(CC[C@@]1(Cc2ccccc2)C(=O)N(C2c3ccccc3C[C@H]2O)C[C@@H]1O)Cc1ccc(-c2ccccn2)cc1)C(C)(C)C | XTT | 31 µM
CC1=NO[C@@]2(CC[C@H](C)N3C[C@H]2n2cc(C(=O)NCc4ccc(F)cc4F)c(=O)c(OCOC(=O)CCC(C)C)c2C3=O)C1 | luminescence | 12.2 µM
CCOC(=O)c1[nH]c2ccc(Cl)cc2c1S(=O)(=O)CCC(F)(F)F | microscopy | >10 µM
CC1=C[C@@H](OCP(=O)(O)O)C[C@H]1n1cnc2c(N)ncnc21 | XTT | 90 µM
C=C1CN(S(=O)(=O)c2ccc(C)cc2)CCCN(C(C)C)CCCN(S(=O)(=O)c2ccc(C)cc2)C1 | trypan blue / propidium iodide | 38.9 µM

Repeating the final 4 entries:

| compound | method | value |
|---|---|---|
| CC1=NO[C@@]2(CC[C@H](C)N3C[C@H]2n2cc(C(=O)NCc4ccc(F)cc4F)c(=O)c(OCOC(=O)CCC(C)C)c2C3=O)C1 | luminescence | 12.2 µM |
| CCOC(=O)c1[nH]c2ccc(Cl)cc2c1S(=O)(=O)CCC(F)(F)F | microscopy | >10 µM |
| CC1=C[C@@H](OCP(=O)(O)O)C[C@H]1n1cnc2c(N)ncnc21 | XTT | 90 µM |
| C=C1CN(S(=O)(=O)c2ccc(C)cc2)CCCN(C(C)C)CCCN(S(=O)(=O)c2ccc(C)cc2)C1 | trypan blue / propidium iodide | 38.9 µM |